Anti-infective test results gathered from many reports (values: NIAID ChemDB through PubChem).

All rows: growth or infection tests

Lines come from different laboratories, so protocols vary.

smiles	organism	strain	mutations	cells	method	read-out	dose	value
Nc1nc2c(ncn2COCOCP(=O)(O)O)c(=O)[nH]1	Parainfluenza virus	SF (TYPE 5)	-	-	neutral red	EC50	-	>100 µg/mL
COc1cc(Cc2cnc(N)nc2N)cc(OC)c1OC	Mycobacterium ulcerans	Isolate 5155	-	-	-	MBC	-	>32 µg/mL
CCOC(=O)Nc1cc2c(cn1)N=C(c1ccccc1)[C@H](C)N2	Encephalitozoon intestinalis	-	-	RK-13	-	inhibition	0.1 µg/mL	58.4%
O=c1cnn([C@@H]2O[C@H](CO)[C@@H](O)[C@H]2O)c(=O)[nH]1	Dengue virus	Type 1 (Hawaii)	-	VERO	virus yield	EC90	-	3.3 µg/mL
CC(=O)N1CCN(c2ccc(OC[C@H]3CO[C@](Cn4ccnc4)(c4ccc(Cl)cc4Cl)O3)cc2)CC1	Candida albicans	Isogenic isolate 17 CDR	-	-	-	MIC	-	0.25 µg/mL
COc1cc(Cc2cnc(N)nc2N)cc(OC)c1OCCCNc1ccc(S(=O)(=O)c2ccc(N)cc2)cc1	Mycobacterium ulcerans	Isolate 8756	-	-	-	MBC	-	2 µg/mL
C[C@H](Cc1ccc(O)c(O)c1)[C@@H](C)Cc1ccc(O)c(O)c1	Candida parapsilosis	CCC 124-2000	-	-	broth dilution	MIC50	-	250 µg/mL
C#CC[C@@H](C(=O)N[C@H](/C=C/C(=O)OCC)C[C@@H]1CCNC1=O)n1cccc(NC(=O)c2cc(C)on2)c1=O	Rhinovirus	Clinical isolate 119 (serotype 39)	-	H1-HELA	cytopathic effect / XTT	inhibition	0.149 µM	90%
CNC1CCc2cc(OC)c(OC)c(OC)c2-c2ccc(OC)c(=O)cc21	Encephalitozoon intestinalis	-	-	RK-13	-	inhibition	1 µg/mL	43.76%
CCO/N=C/c1ccc(OCCC2CCN(c3ccc(C)nn3)CC2)cc1	Rhinovirus	1963M-CV40 (LDL receptor group 62)	-	KB	neutral red	EC50	-	0.092 µM
CCCCC1=Nc2c(cc(NC(=O)OCC)nc2N)NC1C	Encephalitozoon intestinalis	-	-	RK-13	-	inhibition	0.1 µg/mL	64.9%
Nc1ccnc2c1ncn2[C@H]1C=C[C@@H](OCP(=O)(O)O)O1	Adenovirus	adenoid 75 (TYPE 5)	-	-	virus yield	EC90	-	15 µg/mL
CC(=O)Oc1ccccc1C(=O)Nc1ncc([N+](=O)[O-])s1	Vittaforma corneae	-	-	RK-13	-	inhibition	0.1 µg/mL	38.6%
CC(C)=CCN1Cc2cc(Cl)cc3[nH]c(=S)n(c23)C[C@@H]1C	HIV-1	-	RT-M41L T215Y A98G	MT-4	-	EC95	-	>3 µM
Cc1ncc([N+](=O)[O-])n1CCO	Encephalitozoon intestinalis	-	-	RK-13	-	inhibition	0.1 µg/mL	17.1%
Nc1ncnc2c1ncn2C[C@@H](CO)OCP(=O)(O)O	Adenovirus	adenoid 75 (TYPE 5)	-	-	virus yield	EC90	-	1 µg/mL

The last 2 rows once more:

smiles | organism | strain | mutations | cells | method | read-out | dose | value
Cc1ncc([N+](=O)[O-])n1CCO | Encephalitozoon intestinalis | - | - | RK-13 | - | inhibition | 0.1 µg/mL | 17.1%
Nc1ncnc2c1ncn2C[C@@H](CO)OCP(=O)(O)O | Adenovirus | adenoid 75 (TYPE 5) | - | - | virus yield | EC90 | - | 1 µg/mL

Percent inhibition refers to the dose given; in toxicity tests it is the harm to the cells. An empty or dashed field is not shown. ECn: concentration that inhibits the pathogen or its effect by n%. MIC50, MIC90 and the like: level of inhibition, or share of isolates inhibited.